Anti-infective test results gathered from many reports (values: NIAID ChemDB through PubChem).

Common to all: target-level tests; species: HIV; target: Reverse transcriptase

An empty or dashed field is not shown. Rows are shuffled and stem from different studies. ICn: concentration for n% inhibition.

smiles	read-out	read by	changes	value
Nc1nc2c(ncn2[C@H]2CC[C@@H](COP(=O)(O)OP(=O)(O)OP(=O)(O)OP(=O)(O)OC[C@H]3O[C@@H](n4cnc5c(N)ncnc54)[C@H](O)[C@@H]3O)O2)c(=O)[nH]1	IC50	nucleotide incorporation / radiometric	RT-D67N K70R T215Y K219Q	0.74 µM
Nc1nc2c(ncn2[C@H]2CC[C@@H](COP(=O)(O)OP(=O)(O)OP(=O)(O)O)O2)c(=O)[nH]1	IC50	nucleotide incorporation	RT-Y271S	>0.3 µM
Nc1ncnc2c1ncn2[C@H]1CC[C@@H](COP(=O)(O)OP(=O)(O)OP(=O)(O)O)O1	Ki		RT-T215Y	5.2 µM
CC(C)OC(=O)c1cc(NC(=S)OC(C)C)ccc1Cl	IC50	radiometric	K103N	45.5 µM
CC(C)=CCN1Cc2cccc3[nH]c(=S)n(c23)C[C@@H]1C	Ki	nucleotide incorporation		0.92 µM
Nc1nc2c(ncn2[C@H]2CO[C@@H](COP(=O)(O)OP(=O)(O)OP(=O)(O)O)O2)c(=O)[nH]1	Ki	radiometric	RT-D67N K70R T215Y K219Q	0.09 µM
COc1cc(C#N)cc(Oc2c(Cl)ccc(Cc3cc(C)c(=O)[nH]n3)c2F)c1	IC50		WT	0.002 µM
Nc1ccn([C@H]2CC[C@@H](COP(=O)(O)OP(=O)(O)OP(=O)(O)O)O2)c(=O)n1	IC50	nucleotide incorporation / radiometric	RT-V77I F116Y Q151M	3.9 µM
Nc1ccn([C@H]2CC[C@@H](COP(=O)(O)OP(=O)(O)OP(=O)(O)O)O2)c(=O)n1	IC50	nucleotide incorporation / radiometric	RT-M41L T215Y	0.095 µM
Fc1cccc(F)c1CC(=S)NCc1ccccn1	IC50	radiometric	L100I	70.1 µM
Nc1ncnc2c1ccn2[C@H]1C[C@H](F)[C@@H](COP(=O)(O)OP(=O)(O)OP(=O)(O)O)O1	IC50	nucleotide incorporation / radiometric	RT-K65R	0.59 µM
Nc1ncnc2c1ncn2[C@H]1CC[C@@H](COP(=O)(O)OP(=O)(O)OP(=O)(O)O)O1	IC50	nucleotide incorporation / radiometric	RT-V75I F77L F116Y Q151M	71 µM
Nc1nc2c(ncn2[C@H]2CC[C@@H](COP(=O)(O)OP(=O)(O)OP(=O)(O)O)O2)c(=O)[nH]1	IC50	nucleotide incorporation / radiometric	RT-K65R	0.49 µM
S=C(CCc1ccccc1)Nc1ccc(Cl)cn1	IC50	radiometric	K103N	>100 µM
Nc1ncnc2c1ncn2[C@H]1CC[C@@H](COP(=O)(O)OP(=O)(O)OP(=O)(O)OP(=O)(O)OC[C@@H]2CC[C@H](n3cnc4c(N)ncnc43)O2)O1	IC50	nucleotide incorporation / radiometric	RT-D67N K70R T215Y K219Q	0.65 µM
Nc1ccn([C@H]2CC[C@@H](COP(=O)(O)OP(=O)(O)OP(=O)(O)O)O2)c(=O)n1	Ki		RT-L74V	17 µM
S=C(Cc1ccccn1)NCc1ccccc1Cl	IC50	radiometric	L100I	>100 µM

Repeating the first 2 entries:

smiles,read-out,read by,changes,value
Nc1nc2c(ncn2[C@H]2CC[C@@H](COP(=O)(O)OP(=O)(O)OP(=O)(O)OP(=O)(O)OC[C@H]3O[C@@H](n4cnc5c(N)ncnc54)[C@H](O)[C@@H]3O)O2)c(=O)[nH]1,IC50,nucleotide incorporation / radiometric,RT-D67N K70R T215Y K219Q,0.74 µM
Nc1nc2c(ncn2[C@H]2CC[C@@H](COP(=O)(O)OP(=O)(O)OP(=O)(O)O)O2)c(=O)[nH]1,IC50,nucleotide incorporation,RT-Y271S,>0.3 µM